What was measured:
Scytalone dehydratase [1] = target: Scytalone dehydratase (Magnaporthe oryzae (strain 70-15 / FGSC 8958) (Rice blast fungus)(Pyricularia oryzae), UniProt P56221, H85N); experiment: The compound was evaluated for its binding affinity against mutant H85N scytalone dehydratase
Scytalone dehydratase [2] = target: Scytalone dehydratase (Magnaporthe oryzae (strain 70-15 / FGSC 8958) (Rice blast fungus)(Pyricularia oryzae), UniProt P56221, N131A); experiment: The compound was evaluated for its binding affinity against mutant N131A scytalone dehydratase
Scytalone dehydratase [3] = target: Scytalone dehydratase (Magnaporthe oryzae (strain 70-15 / FGSC 8958) (Rice blast fungus)(Pyricularia oryzae), UniProt P56221, Y50F); experiment: The compound was evaluated for its binding affinity against mutant Y50F scytalone dehydratase
Scytalone dehydratase [4] = target: Scytalone dehydratase (Magnaporthe oryzae (strain 70-15 / FGSC 8958) (Rice blast fungus)(Pyricularia oryzae), UniProt P56221, H110N); experiment: The compound was evaluated for its binding affinity against mutant H110N scytalone dehydratase
Scytalone dehydratase [5] = target: Scytalone dehydratase (Magnaporthe oryzae (strain 70-15 / FGSC 8958) (Rice blast fungus)(Pyricularia oryzae), UniProt P56221, Y30F); experiment: The compound was evaluated for its binding affinity against mutant Y30F scytalone dehydratase

CC(C)NC(=O)c1cc(F)ccc1O
Ki (Scytalone dehydratase [1]): 4 µM | Ki (Scytalone dehydratase [2]): 71 µM | Ki (Scytalone dehydratase [3]): 0.085 µM | Ki (Scytalone dehydratase [4]): 9.1 µM | Ki (Scytalone dehydratase [5]): 0.16 µM

From ChEMBL document CHEMBL1133488 (Bioorg Med Chem Lett, 2000)
